Data reported in publication PMC8026907.
Construct, isoform or probe ends are uncertain for at least one entry. At least one verdict rests on a figure or table, not on a statement of the authors. Where a protein sequence is shown, tags need not be part of it.

Molecular target: T1, CRP-MTB (cAMP receptor protein, wild type) (Mycobacterium tuberculosis) (UniProt P9WMH3)
T1 sequence (looked up, limits assumed): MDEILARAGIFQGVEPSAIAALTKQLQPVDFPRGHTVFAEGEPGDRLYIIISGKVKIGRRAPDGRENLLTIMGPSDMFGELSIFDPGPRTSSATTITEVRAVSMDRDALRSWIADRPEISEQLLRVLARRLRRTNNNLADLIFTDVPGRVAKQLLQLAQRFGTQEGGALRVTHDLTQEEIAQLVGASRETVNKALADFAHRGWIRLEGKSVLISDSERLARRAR
Assay: EMSA
Details: recombinant protein

“GCGCGTAGTGTGAACAAGCTCACATGCAAGCC (double strand) [SerC promoter 32-bp (EMSA)]”: binds.
